Each compound was assayed on abc3Δ appressoria (assay: Restoration of appressorium function (host penetration) on barley-leaf explants, abc3Δ). Details: 48 hours, papillary callose deposition, DPI 15 mm, antioxidants 5 mM.
With CC(=O)N[C@@H](CS)C(=O)O the “appressoria with restored host penetration function” value (from here on “appressoria”) was 19±1.6%. c1ccc2c(c1)[I+]c1ccccc1-2 was tested, and the “appressoria” value was 5.1±1.1%. In the case of O=C1O[C@H]([C@@H](O)CO)C(O)=C1O, the “appressoria” value is reported as 23±2.5%.
